Results of unrelated studies side by side (data: NIAID ChemDB).

Common to all: growth or infection tests; organism: Herpes simplex virus 2

Neighbouring rows are from separate reports. a–b is a range or a potency band. ECn is the concentration giving n% inhibition of infection, replication or growth. Blank or dashed fields: not listed here.

| compound | cells | method | strain | endpoint | value |
|---|---|---|---|---|---|
| Cc1cn([C@@H]2O[C@H](CO)[C@@H](O)[C@@H]2F)c(=O)[nH]c1=O | VERO | plaque count | 333 | EC50 | 0.4 µM |
| CCn1cc(C(=O)O)c(=O)c2ccc(C)nc21 | HeLa | cytopathic effect | UW | EC50 | >250 µg/mL |
| COC(=O)[C@]1(C)CCC[C@]2(C)c3cc(Br)c4nc(C)[nH]c4c3CCC12 | E6SM | plaque count |  | EC50 | >4 µg/mL |
| O=c1[nH]c(=O)n(COCCO)nc1Cc1ccccc1 | HFF | cytopathic effect |  | EC50 | >100 µM |
| Cc1c(-c2ccc(C(F)(F)F)cc2)[nH]c2nc3c(ncn3COCCO)c(=O)n12 | HEL | cytopathic effect | LYONS | EC50 | 9.6 µg/mL |
| Nc1nc2c(ncn2C=C2CC2CO)c(=O)[nH]1 | HFF | cytopathic effect |  | EC50 | 429 µM |
| COC(=O)[C@]1(C)CCC[C@]2(C)c3ccc4[nH]cnc4c3CCC12 | E6SM | plaque count |  | EC50 | >4 µg/mL |
| Nc1nc(N)c2ncn(C=C3CC3CO)c2n1 | HFF | cytopathic effect |  | EC50 | 430 µM |
| CC(=O)OCCOCN1C(N)=CC(N)=NS1(=O)=O | E6SM |  | LYONS | EC50 | >400 µg/mL |
| Nc1nc(NC2CC2)c2ncn(C=C3CC3CO)c2n1 | HFF | cytopathic effect |  | EC50 | 73.4 µM |
| Nc1nc2c(ncn2CC(CO)CCO)c(=O)[nH]1 | VERO | plaque count | 91075 | EC50 | 5 µM |
| [N-]=[N+]=N[C@H]1C[C@H](CO)S[C@@H]1n1cnc2c(N)ncnc21 |  |  |  | EC50 | >100 µg/mL |
| COC(=O)[C@]1(C)CCC[C@]2(C)c3cc4cc[nH]c4cc3CCC12 | E6SM | plaque count |  | EC50 | >4 µg/mL |
| CC1(C)[C@@H](CCO)C[C@H]1n1cnc2c(=O)[nH]c(N)nc21 | E6SM | cytopathic effect | G | EC50 | >400 µg/mL |
| Nc1nc2c(ncn2CCCC(CO)CO)c(=O)[nH]1 | VERO | plaque count | 91075 | EC50 | 7 µM |
| CC1(C)[C@@H](CCO)C[C@H]1n1nnc2c(=O)[nH]cnc21 | E6SM | cytopathic effect | G | EC50 | 70 µg/mL |
| Nc1nc2c(ncn2C[C@H]2C[C@@H]2CO)c(=O)[nH]1 |  | cytopathic effect |  | EC50 | >100 µg/mL |
| Nc1ccn([C@H]2C[C@H](O)[C@@H](CO)O2)c(=O)n1 | HeLa | virus yield |  | EC90 | 5 µM |
| CC(=O)OCCOCN1C(=O)C=CN(COCCO)S1(=O)=O | E6SM |  | G | EC50 | >400 µg/mL |
| C[C@@]1(O)[C@@H](CO)O[C@@H](n2cnc3c(N)ncnc32)[C@@H]1O | E6SM | cytopathic effect | G | EC50 | 20 µg/mL |
| Nc1ccn([C@H]2C[C@H](CO)[C@@H](CO)O2)c(=O)n1 |  |  |  | EC50 | 1.4 µg/mL |
| CCCCCc1cn([C@@H]2O[C@H](COP(=O)(O)O)[C@@H](O)[C@H]2O)c(=O)nc1N |  |  | G | EC50 | >400 µg/mL |
| COC(c1cn([C@H]2C[C@H](O)[C@@H](CO)O2)c(=O)[nH]c1=O)C(Br)I | HFF | cytopathic effect | MS | EC50 | >100 µM |
| CCc1cn([C@H]2C[C@H](O)[C@@H](CO)O2)c(=O)[nH]c1=O | PRK | cytopathic effect | LYONS | EC50 | 4 µg/mL |
| Nc1nc2c(ncn2C[C@H]2CC2(CO)CO)c(=O)[nH]1 |  | cytopathic effect |  | EC50 | >100 µg/mL |
| Cc1ccc(Cc2nn(COCCO)c(=O)[nH]c2=O)cc1 | HFF | cytopathic effect |  | EC50 | >100 µM |
| Nc1ncnc2c1ncn2[C@@H]1O[C@H](CO)[C@@H](O)[C@@H]1O | VERO | cytopathic effect |  | EC50 | 10 µg/mL |
| Cc1cn([C@H]2S[C@H](CO)C[C@H]2N=[N+]=[N-])c(=O)[nH]c1=O |  |  |  | EC50 | >100 µg/mL |
| Nc1nc(=O)n([C@H]2C[C@H](O)[C@@H](CO)O2)cc1/C=C\Cl | PRK | cytopathic effect | LYONS | EC50 | 10 µg/mL |
| COC(c1cn([C@H]2C[C@H](O)[C@@H](CO)O2)c(=O)[nH]c1=O)C(Br)Br | HFF | cytopathic effect | MS | EC50 | >56.3 µM |
| O=c1c2ncn(COCCO)c2nc2[nH]c(-c3ccc(C(F)(F)F)cc3)cn12 | HEL | cytopathic effect | G | EC50 | >16 µg/mL |
| Nc1nc2c(ncn2COC(CO)CO)c(=O)[nH]1 | MRC-5 | plaque count |  | EC50 | 0.2 µM |
| CC(=O)NC1C(O)OC(CO)C(O)C1OC1OC(C(=O)[O-])C(OC2OC(CO)C(O)C(OC3OC(C(=O)[O-])C(O)C(O)C3O)C2NC(C)=O)C(O)C1O.[Na+].[Na+] |  |  | G | EC50 | >400 µg/mL |
| CCCCCCc1cn([C@@H]2OC3COP(=O)(O)OC3[C@H]2O)c(=O)nc1N |  |  | LYONS | EC50 | >400 µg/mL |
| O=c1ccn([C@@H]2O[C@H](CO)[C@](O)(C(F)(F)F)[C@H]2O)c(=O)[nH]1 | E6SM | cytopathic effect | G | EC50 | >400 µg/mL |
| CC(=O)OCCOCN1C(C)=CC(N)=[N+](c2ccccc2)S1(=O)=O | E6SM |  | G | EC50 | >400 µg/mL |
| Nc1nc2c(ncn2CCC(O)CO)c(=O)[nH]1 | VERO | plaque count | 72 | EC50 | 12 µM |
| OC[C@H]1O[C@@H](c2cc(/C=C/Br)c(F)cc2F)C[C@@H]1O | E6SM | cytopathic effect | G | EC50 | >400 µg/mL |
| CC(C)c1cn([C@@H]2OC3COP(=O)(O)OC3[C@H]2O)c(=O)nc1N |  |  | 196 | EC50 | >400 µg/mL |
| Nc1ccn([C@@H]2O[C@H](CO)C[C@H]2O)c(=O)n1 | HeLa | virus yield |  | EC90 | >250 µM |
| CC(C)c1cn([C@@H]2O[C@H](COP(=O)(O)O)[C@@H](O)[C@H]2O)c(=O)nc1N |  |  | LYONS | EC50 | >400 µg/mL |
| CC1(C)[C@@H](CCO)C[C@H]1n1nnc2c(N)ncnc21 | E6SM | cytopathic effect | G | EC50 | 100 µg/mL |
| Nc1nc2c(ncn2[C@@H]2C[C@H](CO)[C@H]2CO)c(=O)[nH]1 |  |  |  | EC50 | 0.01–0.1 µM |
| CC(C)c1ccc(-c2cc(-c3cn([C@H]4CC[C@H](O)[C@@H](CO)O4)c(=O)[nH]c3=O)on2)cc1 |  |  |  | EC50 | 0.09 µg/mL |
| [N-]=[N+]=N[C@H]1C[C@H](CO)S[C@@H]1n1ccc(=O)[nH]c1=O |  |  |  | EC50 | >100 µg/mL |
| CC1=CC(=O)N(c2ccccc2)S(=O)(=O)N1COCCO | E6SM |  | G | EC50 | >400 µg/mL |
| Cc1cn([C@H]2C[C@H](O)[C@@H](CO)O2)c(=O)nc1N | HeLa | virus yield |  | EC50 | <125 µM |
| COC(c1cn([C@H]2C[C@H](O)[C@@H](CO)O2)c(=O)[nH]c1=O)C(Cl)I | HFF | cytopathic effect | MS | EC50 | >107 µM |
| CNc1ncnc2c1ncn2[C@H]1S[C@H](CO)C[C@@H]1N=[N+]=[N-] |  |  |  | EC50 | >100 µg/mL |
| O=c1c2ncn(COC(CO)CO)c2nc2[nH]c(-c3ccc(F)cc3)cn12 | HEL | cytopathic effect | 196 | EC50 | 1.92 µg/mL |
| CC(=O)OCCOCN1C=CC(=O)N(COCCO)S1(=O)=O | E6SM |  | LYONS | EC50 | >400 µg/mL |
| Nc1nc2c(ncn2[C@H]2C=C[C@@H](CO)CC2)c(=O)[nH]1 |  |  |  | EC50 | 0.1–1 µM |
| Nc1nc(=O)n([C@H]2C[C@H](O)[C@@H](CO)O2)cc1/C=C/Br | Primary rabbit kidney cells | cytopathic effect | G | EC50 | 7 µg/mL |
| O=c1[nH]c(=O)n(COC(CO)CO)nc1Cc1ccccc1 | HFF | cytopathic effect |  | EC50 | >100 µM |
| COC(=O)[C@H](C)NP(=O)(OC[C@H]1C/C1=C/n1cnc2c(N)nc(N)nc21)Oc1ccccc1 | HFF | cytopathic effect |  | EC50 | 21.5 µM |
| Nc1nc2c(ncn2CC#CCO)c(=O)[nH]1 |  | cytopathic effect |  | EC50 | >100 µg/mL |
| N#CC1=CN(COCCO)S(=O)(=O)N=C1N | E6SM |  | G | EC50 | >400 µg/mL |
| COC(=O)[C@H](C)NP(=O)(OC[C@H]1C/C1=C/n1cnc2c(OC)nc(N)nc21)Oc1ccccc1 | HFF | cytopathic effect |  | EC50 | 0.76 µM |
| Nc1nc2c(ncn2CCC(CO)CO)c(=O)[nH]1 | MRC-5 | plaque count |  | EC50 | 12.8 µM |
| NC1=NC2C(C=CN2CC(CO)CCO)C(=O)N1 |  |  |  | EC50 | 0.01–0.1 µM |
| COC(c1cn([C@H]2C[C@H](O)[C@@H](CO)O2)c(=O)[nH]c1=O)C(Cl)Br | HFF | cytopathic effect | MS | EC50 | >125 µM |
| Nc1nc2c(ncn2COCCOP(=O)(O)O[C@@H]2[C@H](O)[C@@H](COP(=O)(O)O[C@@H]3[C@H](O)[C@@H](CO)O[C@H]3n3cnc4c(N)ncnc43)O[C@H]2n2cnc3c(N)ncnc32)c(=O)[nH]1 | PRK | cytopathic effect | LYONS | EC50 | 0.7 µg/mL |
| O=c1c2ncn(COCCO)c2nc2[nH]c(-c3ccccc3)c(Cc3ccccc3)n12 | HEL | cytopathic effect | G | EC50 | >16 µg/mL |
| CC(C)CS[C@@H]1C=C[C@H](n2cnc3c(N)ncnc32)C1 | E6SM | cytopathic effect | G | EC50 | >16 µg/mL |
| Cc1cn([C@@H]2O[C@H](COP(=O)(O)O)[C@@H](O)[C@H]2O)c(=O)nc1N |  |  | 196 | EC50 | >400 µg/mL |
| [N-]=[N+]=N[C@@H]1[C@@H](OP(=O)(O)OC[C@H]2O[C@@H](n3cnc4c(N)ncnc43)[C@H](OP(=O)(O)OCCOCn3cnc4c(=O)[nH]c(N)nc43)[C@H]2N=[N+]=[N-])[C@H](n2cnc3c(N)ncnc32)O[C@@H]1CO | PRK | cytopathic effect | 196 | EC50 | 1 µg/mL |
| OC[C@H]1O[C@@H](c2cc(C#CI)c(F)cc2F)C[C@@H]1O | E6SM | cytopathic effect | LYONS | EC50 | >400 µg/mL |
| COc1cc(OC)c(NC(=S)Nc2ccc(NC=O)cc2Cl)cc1Cl | HFF | ELISA | 186 | EC50 | 27 µg/mL |
| Cc1cccc(C)c1N(CC(=O)Nc1ccc(-c2ncon2)cc1)C(=O)C1CCS(=O)(=O)CC1 | HEF | plaque count | 2 (G) | EC90 | 0.46 µM |
| CCCc1cn([C@H]2C[C@H](O)[C@@H](CO)O2)c(=O)[nH]c1=O | PRK | cytopathic effect | G | EC50 | 9.3 µg/mL |
| OC[C@H]1O[C@@H](c2cc(/C=C/I)c(F)cc2F)C[C@@H]1O | E6SM | cytopathic effect | 196 | EC50 | >400 µg/mL |
| O=c1[nH]c(=O)n([C@@H]2OC3COP(=O)(O)OC3[C@H]2O)cc1I | PRK | cytopathic effect | LYONS | EC50 | >400 µg/mL |
| Nc1nc2c(ncn2COCCO)c(=O)[nH]1 | HFF | cytopathic effect | T7788 (acyclovir-susceptible) | EC50 | 2.5 µg/mL |
| O=c1[nH]c(=O)n([C@H]2C[C@H](O)[C@@H](CO)O2)cc1C(O)C(Br)I | HFF | cytopathic effect | MS | EC50 | 3.3 µM |
| Nc1nc(=O)n([C@H]2C[C@H](O)[C@@H](CO)O2)cc1/C=C/Cl | PRK | cytopathic effect | LYONS | EC50 | 15 µg/mL |
| Nc1ncnc2c1ncn2C=C1CC1CO | HFF | plaque count |  | EC50 | 47.9 µM |
| COC(=O)[C@]1(C)CCC[C@]2(C)c3cc(Br)c4nc(C(F)(F)F)[nH]c4c3CCC12 | E6SM | plaque count |  | EC50 | >4 µg/mL |

Again, the opening 7 rows:

compound,cells,method,strain,endpoint,value
Cc1cn([C@@H]2O[C@H](CO)[C@@H](O)[C@@H]2F)c(=O)[nH]c1=O,VERO,plaque count,333,EC50,0.4 µM
CCn1cc(C(=O)O)c(=O)c2ccc(C)nc21,HeLa,cytopathic effect,UW,EC50,>250 µg/mL
COC(=O)[C@]1(C)CCC[C@]2(C)c3cc(Br)c4nc(C)[nH]c4c3CCC12,E6SM,plaque count,,EC50,>4 µg/mL
O=c1[nH]c(=O)n(COCCO)nc1Cc1ccccc1,HFF,cytopathic effect,,EC50,>100 µM
Cc1c(-c2ccc(C(F)(F)F)cc2)[nH]c2nc3c(ncn3COCCO)c(=O)n12,HEL,cytopathic effect,LYONS,EC50,9.6 µg/mL
Nc1nc2c(ncn2C=C2CC2CO)c(=O)[nH]1,HFF,cytopathic effect,,EC50,429 µM
COC(=O)[C@]1(C)CCC[C@]2(C)c3ccc4[nH]cnc4c3CCC12,E6SM,plaque count,,EC50,>4 µg/mL